# Data reported in US20240298639A1 (priority 2021, published 2024).
# Tests used:
# Settings in all cases: 2 mg/L
# [1] = test system: phenamacril-resistant scab pathogen, type-I myosin S217A mutant strain
# [2] = test system: phenamacril-resistant scab pathogen, type-I myosin I581A mutant strain
# [3] = test system: phenamacril-resistant scab pathogen, type-I myosin F419A mutant strain
substance,measurement,setting,value
phenamacril,Mycelial growth inhibition rate,[1],1.2%
same,Mycelial growth inhibition rate,[2],33%
same,Mycelial growth inhibition rate,[3],19%
